In EP2924021A1, “ANTI-HIV COMPOUND AND PREPARATION METHOD AND USE THEREOF” (priority 2012, dated 2014):

Key:
[1] = tested on: HIV-1IIIB (C8166 cells); assay: Anti-HIV activity in C8166 cells; format: cell-based; settings: TI(CC50/EC50)
[2] = tested on: HIV-1IIIB(H9 cells); assay: Anti-HIV activity in H9 cells; format: cell-based; settings: TI(CC50/EC50)

Compound | TI [1] | TI [2]
5-(dimethylamino)-N-(2-methoxyphenyl)-2-((4-nitrophenyl)thio)benzamide [compound 28] | 1.11 | 0.78
COc1ccccc1NC(=O)c1c(N)cccc1Sc1ccc([N+](=O)[O-])cc1 [compound 25, 2-amino-N-(2-methoxyphenyl)-6-(4-nitrophenylthi-o)benzamide] | 310.02 | 206.68
COc1ccccc1NC(=O)c1cc(NC(C)=O)ccc1Sc1ccc([N+](=O)[O-])cc1 [compound 29, 5-acetamido-N-(2-methoxyphenyl)-2-((4-nitrophenyl)thio) benzamide] | 1.49 | <0.37
COc1ccccc1NC(=O)c1c(N)cccc1Oc1ccc([N+](=O)[O-])cc1 [compound 48, 2-amino-N-(2-methoxyphenyl)-6-(4-nitrop-henoxy)benzamide] | – | 2.14
Nc1cccc(NC(=O)c2c(N)cccc2Sc2ccc([N+](=O)[O-])cc2)c1 [compound 49, 2-amino-N-(3-aminophenyl)-6-(4-nitroph-enylthio)benzamide] | – | 4.82
COc1cc(N)ccc1NC(=O)c1c(N)cccc1Sc1ccc([N+](=O)[O-])cc1 [compound 50, 2-amino-N-(4-amino-2-methoxyphenyl)-6-(4-nitrophenylthio) benzamide] | – | 2.87
COc1ccc(NC(=O)c2c(N)cccc2Sc2ccc([N+](=O)[O-])cc2)c(OC)c1 [compound 51, 2-amino-N-(2,4-dimethoxyphenyl)-6-(4-nitrophenylthio) benzamide] | – | 0.96
COc1ccccc1NC(=O)c1c(NS(=O)(=O)c2ccccc2)cccc1Sc1ccc([N+](=O)[O-])cc1 [compound 56, N-(2-methoxyphenyl)-2-(4-nitrophenylthio)-6-(phenylsulfonamido) benzamide] | >8.17 | >1.46
COc1ccccc1NC(=O)c1c(NS(=O)(=O)c2ccc(C)cc2)cccc1Sc1ccc([N+](=O)[O-])cc1 [compound 57, N-(2-methoxyphenyl)-2-(4-methylphenylsulfonamido)-6-((4-nitrophenyl)thio) benzamide] | 2.65 | >11.90
COc1ccccc1NC(=O)c1c(NS(=O)(=O)c2ccc(C)cc2)cccc1S(=O)(=O)c1ccc([N+](=O)[O-])cc1 [compound 60, N-(2-methoxyphenyl)-2-(4-methylphenyls-ulfonamido)-6-((4-nitrophenyl)sulfonyl)benzamide] | >2.19 | –
COc1ccccc1NC(=O)c1c(Sc2ccc([N+](=O)[O-])cc2)cccc1N1CCNCC1 [compound 62, N-(2-methoxyphenyl)-2-((4-nitrophenyl)thio)-6-(piperazinyl) benzamide] | 2.99 | 3.71
COc1ccccc1NC(=O)c1c(Sc2ccc([N+](=O)[O-])cc2)cccc1N1CCOCC1 [compound 63, N-(2-methoxyphenyl)-2-morpholino-6-((4-nitrophenyl)thio) benzamide] | >3.75 | –
COc1ccccc1NC(=O)c1c(NCCBr)cccc1Sc1ccc([N+](=O)[O-])cc1 [compound 64, 2-((2-bromoethyl)amino)-N-(2-methoxyp-henyl)-6-((4-nitrophenyl)thio)benzamide] | 3.28 | 0.85
COc1ccccc1NC(=O)c1c(NC(=O)CN)cccc1Sc1ccc([N+](=O)[O-])cc1.Cl [compound 66, 2-(2-aminoacetamido)-N-(2-methoxyphenyl)-6-(4-nitrophenylthio) benzamide hydrochloride] | 97.01 | 451.69
CS(=O)(=O)Oc1ccccc1NC(=O)c1c(N)cccc1Sc1ccc([N+](=O)[O-])cc1 [compound 73, 2-(2-amino-6-((4-nitrophenyl)thio)benzamildo)phenyl methanesulfonate] | 5.28 | –
COc1ccccc1NC(=O)c1c(N)cccc1Sc1cc(C)cc(C)c1 [compound 74, 2-amino-6-((3,5-dimethylphenyl)thio)-N-(2-methoxyphenyl) benzamide] | 9.45 | –
COc1ccccc1NC(=O)c1c(NCCN)cccc1S(=O)(=O)c1ccc([N+](=O)[O-])cc1 [compound 79, 2-((2-aminoethyl)amino)-N-(2-methoxyphenyl)-6-((4-nitrophenyl)sulfonyl) benzamide] | 0.97 | 0.99
COc1ccccc1NC(=O)c1c(NCCO)cccc1Sc1ccc([N+](=O)[O-])cc1 [compound 80, 2-((2-hydroxyethyl)amino)-N-(2-methoxyphenyl)-6-((4-nitrophenyl)thio) benzamide] | 4.81 | 6.08
COc1ccccc1NC(=O)c1c(NCCO)cccc1S(=O)(=O)c1ccc([N+](=O)[O-])cc1 [compound 81, 2-((2-hydroxyethyl)amino)-N-(2-methoxyphenyl)-6-((4-nitrophenyl)sulfonyl) benzamide] | 1.15 | 0.71
